Assay results from paper PMC12114169, “Synthesis, Characterisation, Biological Evaluation and In Silico Studies of Quinoline–1,2,3-Triazole–Anilines as Potential Antitubercular and Anti-HIV Agents” (Molecules, 2025).

Test system: HIV-1 subtype B (NL4.3 virus)
Test: Luciferase-based antiviral assay in TZM-bl cells
Conditions: HIV-1 subtype B IC50 versus AZT

In the case of `FC(F)(F)c1ccccc1NCc1cn(-c2ccnc3cc(Cl)ccc23)nn1` [Compound 11g, [1-(7-Chloro-4-quinolinyl)-1H-1,2,3-triazole-4-methyl]-2-triflouromethylaniline], the “fold less active than AZT” value is reported as 4 fold.
With `O=[N+]([O-])c1cccc(NCc2cn(-c3ccnc4cc(Cl)ccc34)nn2)c1` [Compound 11i, [1-(7-Chloro-4-quinolinyl)-1H-1,2,3-triazole-4-methyl]-3-nitroaniline] the “fold less active than AZT” value was 1.8 fold.
For `Fc1cccc(NCc2cn(-c3ccnc4cc(Cl)ccc34)nn2)c1` [Compound 11h, [1-(7-Chloro-4-quinolinyl)-1H-1,2,3-triazole-4-methyl]-3-flouroaniline], the “fold more active than AZT” value was 8.8 fold and 9 fold.

Values joined by “and” are separate entries in the source; they are usually repeats but may differ in a detail not shown here. Equal values may be shown once.
